System: CD3299 riboswitch
Assay: In-line probing assay, binding to CD3299 riboswitch (Example A)

SMILES: Cc1cc2nc3c(=O)[nH]c(=O)nc-3n(CCCc3ccccc3)c2cc1C
- binding / activity against the CD3299 riboswitch (in words): high affinity

— US20130029980A1, “FLAVIN DERIVATIVES” (published 2013)
